Anti-infective test results gathered from many reports (values: NIAID ChemDB through PubChem).

Shared fields: toxicity to cultured cells; cells: VERO; read-out: CC50

CCn: concentration that lowers growth or viability of the cells by n%. Lines come from different laboratories, so protocols vary.

structure,value
CCc1nc2ccc(Cl)cn2c1C(=O)NCc1ccc(N2CCSCC2)c(F)c1,>32 µM
O=C(Cc1ccccc1Nc1c(Cl)cccc1Cl)N/N=C/c1ccc([N+](=O)[O-])cc1,>22.62 µM
Cc1c(N2CCSCC2)c([N+](=O)[O-])cc2c(=O)c(C(=O)O)cn(C3CC3)c12,160 µM
CC1=C2CC(C)(C)C[C@H]2[C@H](OC(=O)[C@H](O)[C@@H](NC(=O)c2ccccc2)c2ccccc2)c2cocc2C1,271.1 µg/mL
COc1ccc(CC2C3=C(CCCC3)CCN2c2c([N+](=O)[O-])cc3c(=O)c(C(=O)O)cn(C4CC4)c3c2C)cc1,118 µM
Cc1ccn2c(C(=O)NCc3cccc(OC(F)(F)F)c3)c(C)nc2c1,>32 µM
Cc1c(N2C[C@@H](C)O[C@@H](C)C2)c([N+](=O)[O-])cc2c(=O)c(C(=O)O)cn(C3CC3)c12,155.7 µM
CCO[C@@]1(C)Cc2cocc2[C@@H](OC(=O)[C@H](O)[C@@H](NC(=O)c2ccccc2)c2ccccc2)[C@@H]2CC(C)(C)C[C@@H]21,190.9 µg/mL
C[C@@]1(O)[C@H](O)[C@@H](COP(=O)(O)OP(=O)(O)OP(=O)(O)O)O[C@H]1n1ccc2c(N)ncnc21,>320 µM
CCn1cc(C(=O)O)c(=O)c2cc(F)c(N3CCN(C(=O)Cc4ccccc4Nc4c(Cl)cccc4Cl)C(C)C3)c(F)c21,>15.88 µM
Cc1c(-c2ccc(C(c3ccccc3)N3CCN(C)CC3)cc2)c([N+](=O)[O-])cc2c(=O)c(C(=O)O)cn(C3CC3)c12,109 µM
CCc1nc2cc(C)ccn2c1C(=O)NCc1cccc(S(F)(F)(F)(F)F)c1,>32 µM
COc1ccnc([C@](O)(CCN(C)C)[C@@H](c2cc3cc(C#N)ccc3nc2OC)c2cccc(OC)c2F)c1,>10 µg/mL
Nc1nc2c(ncn2C[C@H]2CC[C@@H](P(=O)(O)O)O2)c(=O)[nH]1,>10 µg/mL
C/C(=N\NC(=S)NO)c1ccc([N+](=O)[O-])cc1,>146 µM
Cc1ccn2c(C(=O)NCc3ccc4c(c3)CCO4)c(C)nc2c1,>32 µM
COc1cccc([C@H](c2cc3cc(C#N)ccc3nc2OC)[C@@](O)(CCN(C)C)c2ccc(C)nc2)c1F,>10 µg/mL
CC(=O)O[C@H]1C2=C(C[C@](C)(O)[C@H]3C[C@](C)(COC(=O)[C@H](O)[C@@H](NC(=O)c4ccccc4)c4ccccc4)C[C@@H]13)C(=O)OC2,>1000 µg/mL
Nc1nc2c(ncn2CC2CSC(P(=O)(O)O)O2)c(=O)[nH]1,>100 µg/mL
CC1(C)C[C@H]2[C@H](OC(=O)[C@H](O)[C@@H](NC(=O)c3ccccc3)c3ccccc3)C34COC(=O)C3(C4)C[C@](C)(O)[C@H]2C1,381.8 µg/mL
Cc1cn2c(C(=O)NCc3ccc(N4CCC(c5ccc(OC(F)(F)F)cc5)CC4)cc3)c(C)nc2s1,>32 µM
CC1(C)C[C@H]2[C@H](OC(=O)[C@H](O)[C@@H](NC(=O)c3ccccc3)c3ccccc3)c3cocc3C[C@](C)(O)[C@H]2C1,289.7 µg/mL
O=C(Cc1ccccc1)N[C@@H]1C(=O)N2C(C(=O)O)=C(CN3CCN(c4cc5c(cc4F)c(=O)c(C(=O)O)cn5C4CC4)CC3)CS[C@H]12,13.1 µM
Cc1c(N2CCC3(CC2)OCCO3)c([N+](=O)[O-])cc2c(=O)c(C(=O)O)cn(-c3ccc(F)cc3F)c12,125 µM
COc1cccc([C@H](c2cc3cc(C#N)ccc3nc2OC)[C@@](O)(CCN(C)C)c2cc(C)cc(C)n2)c1F,>10 µg/mL
O=C(Cc1ccccc1Nc1c(Cl)cccc1Cl)N/N=C/c1ccccc1O,>24.13 µM
Cc1c(N2CCn3cc(C(=O)O)nc3C2)c([N+](=O)[O-])cc2c(=O)c(C(=O)O)cn(C3CC3)c12,138 µM
CC1(C)C[C@H]2[C@@H](OC(=O)[C@H](O)[C@@H](NC(=O)c3ccccc3)c3ccccc3)C3=C(C[C@](C)(O)[C@H]2C1)C(=O)OC3,135.8 µg/mL
Cc1c(N2COCC2(C)C)c([N+](=O)[O-])cc2c(=O)c(C(=O)O)cn(C3CC3)c12,161 µM
COc1nc2ccc(Br)cc2cc1[C@@H](c1cccc(F)c1)[C@@](O)(CCN(C)C)c1cncc(C)c1,>10 µg/mL
CC(=O)O[C@@H]1C2=C(C[C@](C)(O)[C@H]3C[C@](C)(COC(=O)[C@H](O)[C@@H](NC(=O)c4ccccc4)c4ccccc4)C[C@@H]13)C(=O)OC2,419.7 µg/mL
COc1cccc([C@H](c2cc3cc(C#N)ccc3nc2OC)[C@@](O)(CCN(C)C)c2cnc(C)c(C)c2)c1F,>10 µg/mL
CC1(C)C[C@H]2[C@H](OC(=O)[C@H](O)[C@@H](NC(=O)c3ccccc3)c3ccccc3)C3=C(C[C@](C)(O)[C@H]2C1)C(=O)OC3,276.4 µg/mL
COc1cccc([C@H](c2cc3cc(Br)ccc3nc2OC)[C@@](O)(CCN(C)C)c2ccnc(C)c2)c1F,>10 µg/mL
COc1cc2c(cc1OC)CN(c1c([N+](=O)[O-])cc3c(=O)c(C(=O)O)cn(C4CC4)c3c1C)CC2,130 µM